Measured values from several laboratories, pooled; numbers as filed in NIAID ChemDB.

Common to all: growth or infection tests

Percent inhibition refers to the dose given; in toxicity tests it is the harm to the cells. Conditions beyond the fields shown may differ between rows. An empty or dashed field is not shown. ECn is the concentration giving n% inhibition of infection, replication or growth.

smiles	measure	species	dose	strain or isolate	cells	method	value
Nc1cc(S(=O)(=O)[O-])cc2cc(S(=O)(=O)[O-])ccc12	inhibition	Rhinovirus	5 µg/mL	-	Human amnion AV3 cells	cytopathic effect	5%
CC1C(c2ccccc2)OC(c2ccccc2)CC12NNC(=S)N2	MIC	Rhizopus spp.	-	-	-	-	25 µg/mL
CSc1nsc(-c2ccc(OCc3ccccc3)cc2)c1C#N	EC50	Rhinovirus	-	Serotype 39 (group B)	HELA-OHIO	cytopathic effect	3 µM
Fc1ccc(Cn2cnc3c(Nc4cccc(F)c4)nc(C(F)(F)F)nc32)cc1	EC50	Rhinovirus	-	Serotype 1B	M-HELA	plaque count	0.9 µM
CSc1nsc(-c2ccc(OCCOc3ccccc3)cc2)c1C#N	EC50	Rhinovirus	-	Serotype 89 (group B)	HELA-OHIO	cytopathic effect	3.5 µM
Fc1cccc(Cn2cnc3c(Nc4cccc(F)c4)nc(C(F)(F)F)nc32)c1	EC50	Rhinovirus	-	Serotype 7	M-HELA	plaque count	1.9 µM
CSc1nsc(-c2ccc(OCCCCOc3ccc(C#N)cc3)cc2)c1C#N	EC50	Rhinovirus	-	Serotype 14 (group A)	HELA-OHIO	cytopathic effect	>2 µM
CCOC(=O)/C=C/[C@H](C[C@@H]1CCNC1=O)NC(=O)[C@@H](CC(=O)[C@@H](NC(=O)c1cc(C)on1)C(C)C)Cc1ccc(F)cc1	EC50	Rhinovirus	-	Isolate 45	OHIO HELA-I	cytopathic effect / visual reading	0.01 µg/mL
Nc1cccc(S(=O)(=O)O)c1	inhibition	Rhinovirus	5 µg/mL	-	Human embryonic lung cells	cytopathic effect	0%
CSc1nsc(-c2ccc(OCCCOc3ccc(C#N)cc3)cc2)c1C#N	EC50	Rhinovirus	-	Serotype 86 (group A)	HELA-OHIO	cytopathic effect	>2 µM
Cc1cc(-c2ccc(N=Nc3c(S(=O)(=O)O)cc4cc(S(=O)(=O)O)cc(N)c4c3O)c(C)c2)ccc1N=Nc1c(S(=O)(=O)O)cc2cc(S(=O)(=O)O)cc(N)c2c1O	inhibition	Rhinovirus	50 µg/mL	-	Human amnion AV3 cells	cytopathic effect	0%
CCO/N=C/c1ccc(OCCC2CCN(c3ccc(Cl)nn3)CC2)cc1	EC50	Rhinovirus	-	363 (ICAM-1 receptor group 32)	KB	neutral red	1.031 µM
Nc1ccc2cc(S(=O)(=O)O)cc(S(=O)(=O)O)c2c1	inhibition	Rhinovirus	50 µg/mL	-	Human embryonic lung cells	cytopathic effect	70%
S=C1NNC2(CC(c3ccccc3)OC(c3ccccc3)C2)N1	MIC	Rhizopus spp.	-	-	-	-	100 µg/mL
O=S(=O)([O-])c1ccc(O)c2ccccc12	inhibition	Rhinovirus	10 µg/mL	-	Human amnion AV3 cells	cytopathic effect	0%
CC1C(c2ccccc2)OC(c2ccccc2)CC12NC(=S)NN2c1ccccc1	MIC	Rhizopus spp.	-	-	-	-	25 µg/mL
COc1cc(-c2ccc(N=Nc3ccc4c(S(=O)(=O)O)cc(S(=O)(=O)O)c(N)c4c3O)c(OC)c2)ccc1N=Nc1ccc2c(S(=O)(=O)O)cc(S(=O)(=O)O)c(N)c2c1O	inhibition	Rhinovirus	5 µg/mL	-	Human amnion AV3 cells	cytopathic effect	0%
Cc1ccc(Cn2cnc3c(Nc4cccc(F)c4)nc(C(F)(F)F)nc32)cc1	EC50	Rhinovirus	-	Serotype 5	M-HELA	plaque count	190 µM

Again, the opening 2 rows:

smiles | measure | species | dose | strain or isolate | cells | method | value
Nc1cc(S(=O)(=O)[O-])cc2cc(S(=O)(=O)[O-])ccc12 | inhibition | Rhinovirus | 5 µg/mL | - | Human amnion AV3 cells | cytopathic effect | 5%
CC1C(c2ccccc2)OC(c2ccccc2)CC12NNC(=S)N2 | MIC | Rhizopus spp. | - | - | - | - | 25 µg/mL